According to US6426075:

Legend:
[1] = tested on: uPA-cleavable immunotoxin variant with tryptophan restored at the P'2 position

Substance: chymotrypsin
- cleavage by chymotrypsin, reducing and non-reducing SDS-PAGE (HB21dsFvPE40(sem1)): the sem1 and 2 immunotoxins were cleaved by these proteases
- cleavage by chymotrypsin, reducing and non-reducing SDS-PAGE (HB21dsFvPE40(sem2)): the sem1 and 2 immunotoxins were cleaved by these proteases

Substance: prostate specific antigen
- cleavage by PSA, SDS-PAGE (1:10 enzyme:substrate, 6 h, 37 C, pH 7.0) (HB21dsFvPE40(sem1)): only ˜20% of HB21dsFvPE40(sem1 ) was cleaved

Substance: trypsin
- cleavage by trypsin, reducing and non-reducing SDS-PAGE (HB21dsFvPE40(sem1)): the sem1 and 2 immunotoxins were cleaved by these proteases
- cleavage by trypsin, reducing and non-reducing SDS-PAGE (HB21dsFvPE40(sem2)): the sem1 and 2 immunotoxins were cleaved by these proteases

Substance: urokinase
- cleavage by urokinase, reducing and non-reducing SDS-PAGE (HB21dsFvPE40(sem1)): the sem1 and 2 immunotoxins were cleaved by these proteases
- cleavage by urokinase, reducing and non-reducing SDS-PAGE (HB21dsFvPE40(sem2)): the sem1 and 2 immunotoxins were cleaved by these proteases
- cleavage by uPA [1]: This mutation retained the distinction of being cleaved by uPA and not by furin
